Anti-infective test results gathered from many reports (values: NIAID ChemDB through PubChem).

Common to all: whole-cell or culture tests; species: HIV-1; endpoint: EC90

ECn is the concentration giving n% inhibition of infection, replication or growth. Rows are shuffled and stem from different studies. An empty or dashed field is not shown.

compound	strain or isolate	mutations	cell line	read by	setting	value
CC(C)(C)NC(=O)[C@@H]1C[C@@H]2CCCC[C@@H]2CN1C[C@@H](O)[C@H](Cc1ccccc1)NC(=O)[C@H](CC(N)=O)NC(=O)c1ccc2ccccc2n1	IIIB		CEM + CEM-SS			0.022 µM
CCNC1=CC(=O)C=C(C[C@]2(C)C(C)CCC3(C)C(C)=CCCC32)C1=O	IIIB		C8166	syncytia		>2.5 µM
CC(C)c1nc(CN(C)C(=O)N[C@H](C(=O)N[C@@H](Cc2ccccc2)C[C@H](O)[C@H](Cc2ccccc2)NC(=O)OCc2cncs2)C(C)C)cs1	NL4-3	PR-I84V	MT-4	p24		0.8 µM
CC[C@H](C)[C@H](C(=O)O)N1C[C@H](CN2CCC(c3cc(Cc4cccc5ccccc45)nn3CC)CC2)[C@@H](c2cccc(F)c2)C1	BaL		HeLa	β-galactosidase		<0.00014 µM
C[C@@H]1C[C@@H]([C@H](O)CC2CC(=O)NC(=O)C2)C(=O)[C@@H](C)C1	RF		MT-2			0.8 µg/mL
Cn1cc(C(=O)N[C@@H](CC(N)=O)C(=O)N[C@@H](Cc2ccccc2)[C@H](O)C(=O)N2C[C@@H](Cl)C[C@H]2C(=O)NC(C)(C)C)c2ccccc21	IIIB		CEM	p24		0.2 µM
CNC1=CC(=O)C(C[C@]2(C)C(C)CCC3(C)C(C)=CCCC32)=CC1=O	IIIB		C8166	syncytia		>16.2 µM
CCn1nc(Cc2cccc3ccccc23)cc1C1CCN(C[C@H]2CN([C@@H](C(=O)O)C(C)(C)C)C[C@@H]2c2cccc(F)c2)CC1	BaL		HeLa	β-galactosidase	50% human serum	0.011 µM
CC(C)CN(C[C@@H](O)[C@H](Cc1ccccc1)NC(=O)[C@H](CC(N)=O)NC(=O)c1ccc2ccccc2n1)C(=O)NC(C)(C)C			CEM	RT activity		0.08 µg/mL
CC(C)(C)OC(=O)N[C@@H](Cc1ccccc1)[C@@H](O)C[C@@H](Cc1ccc(OCC(=O)O)cc1)C(=O)N[C@H]1c2ccccc2C[C@H]1O	IIIB		H9	p24	chronic infection	>10 µM
O=c1[nH]cnc2c1ncn2C1CC[C@@H](CO)O1		K65R	Primary T lymphocytes	p24 / ELISA		86.7 µM
CC(C)CN(C[C@@H](O)[C@H](Cc1ccccc1)NC(=O)O[C@H]1CCOC1)S(=O)(=O)c1ccc(N)cc1	IIIB		CEM + CEM-SS			0.026 µM
NCCCCN(CC1NC[C@@H]2CC[C@H]1N2CC[C@H](NC(=O)C1CCC(F)(F)CC1)c1ccccc1)[C@H]1CCCc2cccnc21	BaL		MAGI	visual reading		>100 µM
Nc1ccn([C@H]2CC[C@@H](CO)O2)c(=O)n1	LAV		C3	p24		2 µM
CC(C)[C@H](NC(=O)OC(C)(C)C)C(=O)N[C@@H](Cc1ccccc1)[C@H]1OP(c2ccccc2)(c2ccccc2)(c2ccccc2)O[C@@H]1[C@H](Cc1ccccc1)NC(=O)[C@@H](NC(=O)OC(C)(C)C)C(C)C	RF		MT-2			50 µg/mL
Cc1c(N)c(C(N)=O)nn1[C@@H]1O[C@H](CO)[C@@H](O)[C@H]1O	IIIB		C8166	syncytia		>320 µM
Nc1nc2c(ncn2[C@H]2C=C[C@@H](CO)C2)c(=O)[nH]1	LAV		C3	p24		2.3 µM
CCOc1cccc(Cc2cc(C3CCN(C[C@H]4CN([C@@H](C(=O)O)[C@H](C)CC)C[C@@H]4c4cccc(F)c4)CC3)n(CC)n2)c1	BaL		HeLa	β-galactosidase	50% human serum	>0.3 µM
O=C(O)c1cc[c]([Sb](=[O])([OH])[OH])cc1[N+](=O)[O-]	NL4-3		MAGI	β-galactosidase		9.07 µM
CCCCCCCCCCCCCCC[C@@H](O)[C@@H](N)CO			TZM-bl + HL2/3	luciferase / cell fusion		>14 µM
CC[C@@H](C)[C@H](C(=O)O)N1C[C@H](CN2CCC(c3cc(Cc4ccc(O)cc4)nn3CC)CC2)[C@@H](c2cccc(F)c2)C1	BaL		HeLa	β-galactosidase	50% human serum	0.011 µM
CC1=CCCC2C1(C)CCC(C)[C@@]2(C)CC1=CC(=O)C(NC(CO)C(=O)O)=CC1=O	IIIB		C8166	syncytia		>23.5 µM
CCOC(=O)Cn1nc(Cc2ccccc2)cc1C1CCN(C[C@H]2CN([C@@H](C(=O)O)C3CCCCC3)C[C@@H]2c2ccccc2)CC1	BaL		HeLa	β-galactosidase		0.022 µM
CC[C@H]1OC(=O)[C@H](C)[C@@H](O[C@H]2C[C@@](C)(OC)[C@@H](O)[C@H](C)O2)[C@H](C)[C@@H](O[C@@H]2O[C@H](C)C[C@H](N(C)C)[C@H]2O)[C@](C)(O)C[C@@H](C)C(=O)[C@H](C)[C@@H](O)[C@]1(C)O	LAV-1		CEM	RT activity		107 µg/mL
CCn1nc(Cc2ccc(F)cc2F)cc1C1CCN(C[C@H]2CN([C@@H](C(=O)O)C(C)C)C[C@@H]2c2cccc(F)c2)CC1	BaL		HeLa	β-galactosidase		0.1 µM
CC1=CCCC2C1(C)CCC(C)[C@@]2(C)Cc1cc(=O)c2nc3[nH]cnc4ncn(c2c1=O)c43	IIIB		C8166	syncytia		>28.2 µM
CC(C)[C@H](NC(=O)N(C)Cc1ccccn1)C(=O)N[C@@H](Cc1ccccc1)[C@H](O)[C@H](O)[C@H](Cc1ccccc1)NC(=O)[C@@H](NC(=O)N(C)Cc1ccccn1)C(C)C	IIIB		ATH8	cytopathic effect / trypan blue		4 µM
Cc1cn([C@H]2C=C[C@@H](CO)O2)c(=O)[nH]c1=O		A62V V75I F77L F116Y Q151M	Primary T lymphocytes	p24 / ELISA		70.3 µM
Cc1cn([C@H]2C[C@H](N=[N+]=[N-])[C@@H](CO)O2)c(=O)[nH]c1=O	477 clinical isolates delavirdine-resistant		PBMC	p24		<0.3 µM
CC(=O)c1ccccc1NC(C(N)=O)c1c(Cl)cccc1Cl	DLV-resistant MF (RT-P236L)	RT-P236L	MT-4	p24		0.08 µM
CCn1nc(Cc2ccc(OC(F)F)cc2)cc1C1CCN(C[C@H]2CN([C@@H](C(=O)O)C(C)(C)C)C[C@@H]2c2cccc(F)c2)CC1	BaL		HeLa	β-galactosidase	50% human serum	0.011 µM
COc1ccc(-c2cc(C3CCN(C[C@H]4CN([C@@H](C(=O)O)C5CCCCC5)C[C@@H]4c4cccc(F)c4)CC3)[nH]n2)cc1	BaL		HeLa	β-galactosidase		>0.3 µM
O=c1[nH]cnc2c1ncn2[C@H]1CC[C@@H](CO)O1	IIIB		MT-4	cytopathic effect / MTT		11.3 µM
CCOc1ccc(Cc2cc(C3CCN(C[C@H]4CN([C@@H](C(=O)O)[C@H](C)CC)C[C@@H]4c4cccc(F)c4)CC3)n(CC)n2)cc1F	BaL		HeLa	β-galactosidase	50% human serum	0.033 µM
CC1=CCCC2C1(C)CCC(C)[C@@]2(C)CC1=CC(=O)C(NC(CS(=O)(=O)O)C(=O)O)=CC1=O	IIIB		C8166	syncytia		1 µM
Cc1cn([C@H]2C[C@H](N=[N+]=[N-])[C@@H](CO)O2)c(=O)[nH]c1=O	IIIB		ATH8	cytopathic effect		<0.25 µg/mL
COc1cccc2cc(C(=O)N[C@@H](CC(N)=O)C(=O)N[C@@H](Cc3ccccc3)[C@H](O)C(=O)N3C[C@@H](Cl)C[C@H]3C(=O)NC(C)(C)C)oc12	IIIB		CEM	p24		0.06 µM
O=C(O)[C@@H](C1CCCCC1)N1C[C@H](CN2CCC(c3cc(-c4ccc(Cl)cc4Cl)n[nH]3)CC2)[C@@H](c2cccc(F)c2)C1	BaL		HeLa	β-galactosidase		>0.3 µM
C=C(C)[C@@H]1CC[C@]2(C(=O)NCCCCCCCC(=O)N[C@@H](CC(C)C)[C@H](O)CC(=O)O)CC[C@]3(C)[C@H](CC[C@@H]4[C@@]5(C)CC[C@H](O)C(C)(C)[C@@H]5CC[C@]43C)[C@@H]12	NL4-3		CEM	RT activity		0.22 µM
O=C(O)c1cccc(CCCC2(O)CCN(C[C@H]3CN(CC4CCCCC4)C[C@@H]3c3ccccc3)CC2)c1	BaL		HeLa	β-galactosidase		>1 µM
Cn1cc(C(=O)O)c(=O)c2cc(F)c(N3CC=C(c4ccccc4)CC3)c(C(F)(F)F)c21	IIIB		MOLT-4/M0(HIV-1(IIIB)) + MOLT-4	p24		0.3 µM
CC(C)Nc1cccnc1N1CCN(C(=O)c2cc3cc(NS(C)(=O)=O)ccc3[nH]2)CC1	410 clinical isolates AZT-resistant		PBMC	p24		>10 µM
O=C(O)[C@@H](C1CCCCC1)N1C[C@H](CN2CCC(c3cc(-c4cccc5ccccc45)n[nH]3)CC2)[C@@H](c2ccccc2)C1	BaL		HeLa	β-galactosidase		>0.3 µM
CC(C)(C)NC(=O)[C@@H]1C[C@H](Cl)CN1C(=O)[C@@H](O)[C@H](Cc1ccccc1)NC(=O)[C@H](CC(N)=O)NC(=O)c1cnc2ccccc2n1	IIIB		MOLT-4/HIV-1(IIIB) + MOLT-4	p24		1.2 µM
CC(C)(C)NC(=O)[C@@H]1C[C@@H]2CCCC[C@@H]2CN1C[C@@H](O)[C@H](Cc1ccccc1)NC(=O)[C@H](CC(N)=O)NC(=O)c1ccc2ccccc2n1	BR59 (PR L10I K20R M36I/V P63L/S L90M)	PR-L10I K20R M36I/V P63L/S L90M	PBMC	p24		0.018 µM
Nc1ncnc2c1ncn2[C@H]1CC[C@@H](CO)O1	LAV		C3	p24		29 µM
CCn1nc(Cc2ccccc2)cc1C1CCN(C[C@H]2CN([C@@](C)(C(=O)O)C(C)C)C[C@@H]2c2cccc(F)c2)CC1	BaL		HeLa	β-galactosidase		0.3 µM
CC(C)(C)NC(=O)[C@@H]1CCCN1C(=O)[C@@H](O)[C@H](Cc1ccccc1)NC(=O)[C@H](CC(N)=O)NC(=O)c1cnc2ccccc2n1	IIIB		CEM	p24		0.5 µM
CC1=CCC[C@H]2[C@](C)(CC3=CC(=O)C=CC3=O)[C@@H](C)CC[C@]12C	IIIB		C8166	syncytia		1.5 µM

The last 6 rows once more:

compound,strain or isolate,mutations,cell line,read by,setting,value
CC(C)(C)NC(=O)[C@@H]1C[C@H](Cl)CN1C(=O)[C@@H](O)[C@H](Cc1ccccc1)NC(=O)[C@H](CC(N)=O)NC(=O)c1cnc2ccccc2n1,IIIB,,MOLT-4/HIV-1(IIIB) + MOLT-4,p24,,1.2 µM
CC(C)(C)NC(=O)[C@@H]1C[C@@H]2CCCC[C@@H]2CN1C[C@@H](O)[C@H](Cc1ccccc1)NC(=O)[C@H](CC(N)=O)NC(=O)c1ccc2ccccc2n1,BR59 (PR L10I K20R M36I/V P63L/S L90M),PR-L10I K20R M36I/V P63L/S L90M,PBMC,p24,,0.018 µM
Nc1ncnc2c1ncn2[C@H]1CC[C@@H](CO)O1,LAV,,C3,p24,,29 µM
CCn1nc(Cc2ccccc2)cc1C1CCN(C[C@H]2CN([C@@](C)(C(=O)O)C(C)C)C[C@@H]2c2cccc(F)c2)CC1,BaL,,HeLa,β-galactosidase,,0.3 µM
CC(C)(C)NC(=O)[C@@H]1CCCN1C(=O)[C@@H](O)[C@H](Cc1ccccc1)NC(=O)[C@H](CC(N)=O)NC(=O)c1cnc2ccccc2n1,IIIB,,CEM,p24,,0.5 µM
CC1=CCC[C@H]2[C@](C)(CC3=CC(=O)C=CC3=O)[C@@H](C)CC[C@]12C,IIIB,,C8166,syncytia,,1.5 µM